This is a selection; strong and weak results do not stand in their true shares. Active and inactive are the calls of the source. No stated cut-off is given here; in the data, active means inhibition above about 28%; inactive means the rest.

In this assay the test system is EBNA-1 (Epstein-Barr virus nuclear antigen 1), Human herpesvirus 4. Put plainly: EBNA-1 DNA-binding inhibitors, primary screen, biochemical, fluorescence polarization (AID 1950). The settings on record: at 14.8 µM, stronger effect = higher value. In general terms: In fluorescence polarisation assays a small probe gives low polarisation when free and higher when bound to something large.
As usually defined, the inhibition is the change of the read-out against control, counted positive when it falls. `Cc1ccc(C(=O)NCC2(N3CCCCC3)CCCCC2)o1`: the inhibition is inactive: 11.5%.
The result for `Fc1ccccc1NC1CCN(Cc2ccccc2)CC1` reads inactive: -10.7%.
With `COc1cc(OC)cc(C(=O)NCC2(N3CCCCC3)CCCCC2)c1` the figure was inactive: 7.27%.
With `CN(C)c1ccc(C(=O)NCC2(N3CCCCC3)CCCCC2)cc1` the figure was inactive: 2.97%; with `CCN1CCC(Nc2cccc(F)c2)CC1`, inactive: -5.58%.
Consider `CC(C)(C)OC(=O)N1CCC(Nc2ccccc2)CC1`, for which the inhibition was inactive: -2.21%.
The result for `O=C(O)C1(Nc2ccccc2)CCN(Cc2ccccc2)CC1` reads inactive: -6.22%; that for `CCCOc1ccc(C(=O)NCC2(N(C)C)CCCCC2)cc1`, inactive: -9.68%; that for `CCOc1ncccc1C(=O)NCC1(N2CCOCC2)CCCCC1`, inactive: 11.4%.
`CN1CCC(Nc2ccc(F)c(Cl)c2)CC1`: the inhibition is inactive: -5.52%.
Consider `CN1CCC(Nc2ccc(Cl)cc2)CC1`, for which the inhibition was inactive: 1.31%.
The result for `CCCOc1ccc(C)cc1CN(CCCl)CCCl` reads inactive: -3.5%; that for `COc1cccc(C(=O)N(c2cc(C)cc(C)c2)C2CCN(C(=O)OC(C)(C)C)CC2)c1`, inactive: -19.4%.
Take `COc1cc(OC)cc(C(=O)NCC2(N3CCOCC3)CCCCC2)c1`: the inhibition is inactive: 6.24%.
Consider `CCC(CO)(C(=O)OC1CN2CCC1CC2)c1ccccc1` (stereo unspecified), for which the inhibition was inactive: -2.96%.
Turning to `COc1ccc(C(=O)NCC2(N3CCOCC3)CCCCC2)cc1OC`, the inhibition is inactive: -2.88%.
With `O=C(OC1CN2CCC1CC2)C1c2ccccc2C=Cc2ccccc21` (stereo unspecified) the figure was inactive: -7.61%.
With `CCc1cc(C(=O)NCC2(N3CCCCC3)CCCCC2)sc1C` the figure was inactive: -0.69%.
The result for `CCOC(=O)N1CCC(Nc2ccc(C)cc2)CC1` reads inactive: 1.59%; that for `N/C(=N\O)c1c(N)no[n+]1[O-]`, inactive: 0.86%.
In the case of `N#Cc1ccc(C(=O)NCC2(N3CCCCC3)CCCCC2)cc1`, the inhibition is inactive: -2.78%.
The result for `CC(C)(C)OC(=O)N1CCC(N(C(=O)c2ccccc2)c2ccc(Cl)cc2)CC1` reads inactive: 5.09%.
With `CN(C)C1(CNC(=O)c2cccc(C#N)c2)CCCCC1` the figure was inactive: 4.13%; with `c1ccc(CN2CCC(Nc3ccccc3)CC2)cc1`, inactive: -5.38%; with `CCCN1CCC(Nc2cc(OC)cc(OC)c2)CC1`, inactive: -8.53%.
As to `CCN1CCC(Nc2ccc(Cl)cc2)CC1`, the inhibition was inactive: -0.53%.
The result for `N#CC1(Nc2ccccc2)CCN(CCc2ccccc2)CC1` reads inactive: 0.43%; that for `O=C(NCC1(N2CCCCC2)CCCCC1)c1cccc([N+](=O)[O-])c1`, inactive: 0.96%; that for `O=C(NCC1(N2CCCCC2)CCCCC1)c1ccc(OC(F)F)cc1`, inactive: -27%.
As to `O=C(NCC1(N2CCOCC2)CCCCC1)c1cc(=O)[nH]c2ccccc12`, the inhibition is inactive: -6.65%.
As for `COc1cc(C(=O)NCC2(N3CCCCC3)CCCCC2)ccc1OC(F)F`, the inhibition is inactive: -5.14%.
In the case of `COc1ccc(NC2CCN(C(=O)OC(C)(C)C)CC2)cc1`, the inhibition is inactive: -8.45%.
Take `CN1CCN(CCOC(=O)C(O)(c2ccccc2)c2ccccc2)CC1`: the inhibition is inactive: -1.23%.
The result for `O=C(NCC1(N2CCCCC2)CCCCC1)c1cccc(C(F)(F)F)c1` reads inactive: 6.59%.
With `COc1cc(OC)c(C(=O)NCC2(N(C)C)CCCCC2)cc1OC` the figure was inactive: 2.82%; with `CC(C)c1ccc(NC2CCN(C(=O)OC(C)(C)C)CC2)cc1`, inactive: 9.09%; with `COc1ccc(CN(CCCl)CCCl)cc1Cl`, inactive: -6.75%.
With `CN(C)c1cccc(C(=O)NCC2(N3CCCCC3)CCCCC2)c1` the figure was inactive: -2.38%.
Regarding `CN1CCC(Nc2cccc(F)c2)CC1`, the inhibition is inactive: 6.93%.
The result for `CSc1ccccc1C(=O)NCC1(N2CCCCC2)CCCCC1` reads inactive: -5.23%; that for `COc1ccc(C(=O)NCC2(N3CCCCC3)CCCCC2)cc1`, inactive: 4.1%; that for `COc1ccc(C(=O)NCC2(N3CCCCC3)CCCCC2)c(OC)c1OC`, inactive: 6.12%.
The result for `CC(C)(C)OC(=O)N1CCC(N(C(=O)c2ccccc2)c2ccc(F)cc2)CC1` reads inactive: -0.07%.
With `O=C(NCC1(N2CCCCC2)CCCCC1)c1ccc(=O)[nH]c1` the figure was inactive: 11.6%.
For `O=C(NCC1(N2CCCCC2)CCCCC1)c1cccs1`, the inhibition was inactive: 7.85%.
The result for `O=C(OC1CN2CCC1CC2)C1c2ccccc2Oc2ccccc21` (stereo unspecified) reads inactive: 4.36%; that for `N#CC1(Nc2ccccc2)CCN(Cc2ccccc2)CC1`, inactive: 7.18%.
As for `CCOC(=O)N1CCC(Nc2ccc(OC)cc2)CC1`, the inhibition was inactive: 12.6%.
With `O=C(NCC1(N2CCCCC2)CCCCC1)c1ccc(Cl)nc1` the figure was inactive: -8.01%; with `Cc1cc(C)cc(N(C(=O)c2ccccc2)C2CCN(C(=O)OC(C)(C)C)CC2)c1`, inactive: 11.8%.
As to `O=C(NCC1(N2CCOCC2)CCCCC1)c1cc2ccccc2o1`, the inhibition was inactive: -6.86%.
The result for `O=C(NCC1(N2CCCCC2)CCCCC1)c1ccc(F)cc1` reads inactive: -1.05%.
The result for `COc1ccc(NC2CCN(CCc3ccccc3)CC2)c(OC)c1` reads inactive: -9.4%; that for `CCOc1ccc(C)cc1CN(CCCl)CCCl`, inactive: -2.57%.
With `CCOC(=O)N1CCC(Nc2cccc(C)c2)CC1` the figure was inactive: -2.89%.
Regarding `Cc1ccc(OCC(C)C)c(CN(CCCl)CCCl)c1`, the inhibition is inactive: -4.38%.

The values are drawn from PubChem BioAssay AID1950 (The Scripps Research Institute Molecular Screening Center, 2009).
